# Percent effect of library compounds

Data taken from ChEMBL document CHEMBL3988442, “University of Dundee, Small-Polar-MMV Screening Library” (2021).

The filed quantity is “Percent Effect” (%).
How 0% and 100% were set is not recorded. Most values in the screen are low, and negative values occur.
Many other results are left out here, so strong results are more common than in the screen.
Two or more numbers in one place are separate tests of the same structure; such repeats can differ widely.
A dash means the value is not listed here; it may have been measured.

Mtb glucose medium: 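Phenotypic screen: M. tuberculosis growth, glucose 7H9 medium, 3 days; the read-out is not stated. Compounds at 50 µM. Direction is inferred from retests: higher values go with more growth inhibition. Size under these conditions: about 69,000 compounds, about 760 of them at 50% or above in at least one test.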
Mtb cholesterol medium: 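Growth of Mycobacterium tuberculosis over 4 days (cholesterol / DPPC medium with tyloxapol); the read-out is not stated. Tested at 50 µM. The record gives no direction; compounds that gave an IC50 in retests scored well above the rest, so higher reads as more growth inhibition. Size under these conditions: about 69,000 compounds, about 370 of them at 50% or above in at least one test.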

| compound | Mtb glucose medium | Mtb cholesterol medium |
|---|---|---|
| `O=C(Cn1cc(Cl)cn1)Nc1ccc2c(c1)OCO2` | -9.521 | -8.728 |
| `CCCC(C)CS(=O)(=O)NCc1cccnc1N(C)C` (centres unmarked) | -0.00452 | 4.063 |
| `CC1CCC(NS(=O)(=O)CC(=O)Nc2ccc(N3CCCC3)cn2)CC1` (centres unmarked) | 16.8 | - |
| `COc1ccc(C)cc1CN1CCC(c2cc3ncccc3cn2)CC1.Cl` | 103.8 | 104.2 |
| `CCN(C)c1ccc(CNC(=O)c2cc(C(N)=O)cs2)cc1F` | 5.599 | -7.627 |
| `CC(=O)Nc1ccc(-c2ccccc2CCN)cc1` | 40.71 | - |
| `NCc1ccnc(Oc2ccc(F)cc2)c1` | 9.119 | - |
| `Cn1ccnc1-c1ccc(NCCC2COc3ccccc3O2)nn1` (centres unmarked) | 56.79 | - |
| `CCOc1ccc(N2CCCN=C2NC(=O)c2cccc(Cl)c2)cc1` | -18.98 | - |
| `Cc1nc(-c2cccc(C(=O)O)c2)cc(C2CCN(C(C)C)C2)n1` (centres unmarked) | 71.78 | - |
| `Cc1nnc(CCNC(=O)Nc2ccc(S(C)(=O)=O)cc2)[nH]1` | -3.646 | -46.21 |
| `CN(CCOc1ccc(Cl)cc1)Cc1ccc(S(=O)(=O)N(C)C)o1` | 22.29 | -2.531 |
| `Cc1nc(-c2ccsc2)ccc1C(=O)N(C)CC(F)(F)F` | 14.93 | - |
| `CCOc1ccc(NC2CCN(CC(F)(F)F)C2=O)cc1C` (centres unmarked) | 4.391 and 8.95 | - |
| `Cc1ccccc1NC1CCN(C(=O)CCc2ccco2)CC1` | 44.67 and 51.23 | - |
| `COc1cccc2c1CCCCN2C(=O)c1oc(C)nc1C` | - | 72.92 |
| `CC[C@H](C)Nc1ncc(-c2ccn(C3CCN(C(C)=O)CC3)n2)cn1` | 22.39 | - |
| `Cn1c(C2CC2)nc2c1CCN(CCOc1cccc(F)c1)C2` | 56.73 | - |
| `COc1ccnc(CN2CCCC(CCc3ccccc3)C2)c1OC` (centres unmarked) | 18.91 and 15.41 | - |
| `CCC(CNC(=O)c1ccco1)N1CCc2ccccc2C1` (centres unmarked) | 16.92 and 1.091 | - |
| `CCCC(=O)Nc1ccc(CC(=O)N(CC)CC2CCCCO2)cc1` (centres unmarked) | -18.67 | -31.73 |
| `O=C(Cn1c(=O)oc2ccccc21)NCC1(O)CCc2ccccc21` (centres unmarked) | -1.272 | -0.3507 |
| `CC(C)COCC(NC(=O)c1ccncc1)c1ccco1` (centres unmarked) | -21.87 | - |
| `Cc1cccc(CNC(Cc2ccsc2)c2nccs2)n1` (centres unmarked) | 37.91 | - |
| `CCOc1nn(CC)cc1-c1nnc(SCc2cccnc2)n1C` | -0.9283 and -7.324 | - |
| `CC(SCCS(C)(=O)=O)c1nc(Cc2ccc(F)cc2)no1` (centres unmarked) | 12.53 | - |
| `Clc1cccc(Cl)c1CNCCOc1ccccn1` | 1.622 and 14 | - |
| `Cc1cccc(CC(=O)N2CCN(c3nccn3C)CC2)c1.Cl` | 8.946 | - |
| `CC(=O)N1CCC(C(=O)c2cc(C)cnc2N)CC1` | 6.472 | -8.828 |
| `Cc1cc(C)cc(OCCNC(=O)C(C)Sc2nncn2C)c1` (centres unmarked) | 3.75 | - |
| `CCCC(C)CS(=O)(=O)NCc1cccnc1OC` (centres unmarked) | 23.75 | 5.162 |
| `c1ccc(NCc2ccsc2)c(Cn2cncn2)c1` | 24.11 | 4.004 |
| `OCC1CCCN1c1cc(N2CCC(OC3CCCC3)CC2)ncn1` (centres unmarked) | 71.33 | - |
| `CCc1nc(NC2CCCN(C(=O)c3cccs3)C2)c2cnn(C)c2n1` (centres unmarked) | - | 51.85 |
| `Br.O=C(CN(C1=NCCCCC1)c1ccc(Cl)cc1)c1ccccc1` | 85.68 | 76.74 |
| `O=C(CC1CCCCC1)N1CCC(c2ncc3c(n2)CCNC3)CC1` | 13.08 | - |
| `COc1cc(NC(=O)NC(C2CC2)C2CC2)ccc1N1CCOC1=O` | 31.82 | - |
| `Cc1[nH]/c(=N\C(=O)c2csc(NC3CCCC3)n2)sc1C` | 61.73 | 61.09 |
| `CCc1noc(-c2ccc(SCC(=O)O)nc2)n1` | -15.07 | - |
| `COCCCNC(=O)Nc1cccc(Cl)c1-n1cccn1` | -32.08 | - |
| `Cc1ccc(C(=O)NC(C)Cn2cccn2)c(=O)[nH]1` (centres unmarked) | -12.81 | -19.52 |
| `CC(NCc1cccc2c1OCCO2)c1cc2c(cc1Br)OCCO2` (centres unmarked) | 11.48 | - |
| `CCc1ncc(-c2cn(CCSc3ncn[nH]3)nn2)cn1` | 71.63 | - |
| `CC(NCc1ccc(-c2ccc(F)cc2)o1)c1nnc2n1CCC2` (centres unmarked) | -7.944 | - |
| `[H][C@]12CC[C@]([H])(CN(Cc3cccc(-n4cccn4)c3)C1)N(CCC)C2` | 37.74 | 21.06 |
| `CS(=O)(=O)NCc1ccc(NC(=O)CC2=CCCCC2)cc1` | - | -11.41 and -15.87 |
| `O=C(NCc1cc2ccccc2[nH]1)C1CCCN(C(=O)N2CCCC2)C1` (centres unmarked) | 24.29 | - |
| `COc1cccc(C(CO)NC(=O)NC(C)C)c1` (centres unmarked) | - | 2.96 and 16.7 |
| `CC(C)c1nnc(CN(C)Cc2ccccc2-c2ccccc2)o1` | 47.52 and 57.22 | - |
| `Cc1cc(C(=O)N2CCN(c3nc4c(C(C)C)cccc4s3)CC2)on1` | 58.13 | 65.27 |
| `O=C1Nc2ccccc2NC12CCN(c1cccc(C(F)(F)F)n1)CC2` | - | 114.6 |
| `Cc1cc(C)nc(N2CCC(c3ccnc(N(C)C)n3)CC2)n1` | 3.847 | - |
| `CCc1nn(C)c(Cl)c1CN1CCN(c2ccc(C(N)=O)cn2)CC1` | 70.23 and 6.797 | - |
| `COc1cc(C(=O)NCCc2ccc(Cl)cc2)on1` | 38.42 and 45.59 | 37.2 |
| `Cc1noc(C)c1CNCC1COCc2c(-c3ccoc3)nnn2C1.O=C(O)C(F)(F)F` (centres unmarked) | 24.42 | - |
| `O=C(O)[C@@H]1CN(CCOCCO)C[C@H]1c1ccccc1` | 4.737 and -23.59 | - |
| `CN(C)CC1(O)CCCN(C(=O)Cn2ccc3ccccc32)CC1` (centres unmarked) | 2.586 and -26.81 | -4.374 |
| `[H][C@]12CC[C@]([H])(CN(Cc3noc(C4CCCC4)n3)C1)N(CC1CCC1)C2` | -22.55 | 28.21 |
| `Cc1cccnc1C(Cc1ccsc1)NCc1cnc(N(C)C)nc1` (centres unmarked) | 3.576 | - |
| `O=C(NCCCN1CCCCC1)c1ccc(-n2ccc3ccccc32)s1` | 80.06 | 64.09 |
| `Nc1ccnc(N2CCC(c3nccn3CC3CC3)CC2)n1` | - | -13.52 |
| `COc1cccc(Nc2nc(C3CCNCC3)c3ccccn23)c1.Cl` | 14.24 | - |
| `Cc1ccc(C(=O)N2CCCC(Nc3ccc(F)cc3)C2)cc1` (centres unmarked) | - | 26.34 and 51.18 |
| `CC(C)(NCC(=O)NCC(F)(F)F)c1ccc2c(c1)OCCO2` | 3.565 | - |
| `Cc1cc(NC(=O)NCC(O)c2ccc(F)cc2)n(C)n1` (centres unmarked) | -8.12 | - |
| `O=C1CCNc2ncc(-c3cccc(Cl)c3)cc2CN1C1CC1` | 56.97 | - |
| `COc1cn(-c2ccccc2)nc1C(=O)NCCN1CCCC(C)C1` (centres unmarked) | 15.59 | 5.927 |
| `C=C(C)CSc1nnc(CCNC(=O)OC(C)(C)C)o1` | 54.65 | 57.6 |
| `COC(CNC(=O)N1CCC(n2cncn2)CC1)c1ccccc1` (centres unmarked) | -9.023 | - |
| `N#CC1(C(=O)N2CCN(c3nccs3)CC2)CCCCC1` | 11.87 | -10.92 |
| `Cl.Clc1ccccc1CN1CCc2nc(C3CCCCN3)ncc2C1` (centres unmarked) | 20.3 | - |
| `COc1cc(CN2CC[C@@H](N3CCCCCC3)[C@H](O)C2)cc(Cl)c1OC` | 24.72 | - |
| `O=C(CCCc1nc(-c2ccccc2)no1)N1CCN(CCO)CC1` | -20.06 | -8.021 |

For reference, 6 entries once more:

compound,Mtb glucose medium,Mtb cholesterol medium
O=C(Cn1c(=O)oc2ccccc21)NCC1(O)CCc2ccccc21 (centres unmarked),-1.272,-0.3507
Cc1noc(C)c1CNCC1COCc2c(-c3ccoc3)nnn2C1.O=C(O)C(F)(F)F (centres unmarked),24.42,-
Cc1cc(NC(=O)NCC(O)c2ccc(F)cc2)n(C)n1 (centres unmarked),-8.12,-
CCc1noc(-c2ccc(SCC(=O)O)nc2)n1,-15.07,-
COCCCNC(=O)Nc1cccc(Cl)c1-n1cccn1,-32.08,-
CCc1nn(C)c(Cl)c1CN1CCN(c2ccc(C(N)=O)cn2)CC1,70.23 and 6.797,-